PubChem BioAssay AID504761, Drosophila RNAi Screening Center, 2011
The screen tested about 22,000 reagents; below is a random part of those with a known target gene and a result. Over the whole deposit, 116 (0.52%) were called active. 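Calls depend on retest data that are not deposited; infection was ranked per plate without normalising between plates; the unit of the infection score is not given.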 Raw values vary from plate to plate and are shown uncorrected. The numbers tell different reagents against one gene apart. A plus sign joins genes that one reagent is predicted to hit. The record does not give: the amount of reagent, the time to read-out.

- Screen: 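Fly genes whose silencing reduces dengue virus type 2 infection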 (primary screen)
- System: D.Mel-2 cells from Drosophila
- Knock-down reagent: long dsRNA against Drosophila genes
- Conditions: infection with dengue virus type 2; dose and infection time not stated
- Measured: 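Per well on two replicate plates, imaging gave the percent of cells positive for viral envelope protein, ranked by infection, and a nuclear count of cells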
- Reading the numbers: infection score: higher = more virus-infected cells; cell count: higher = more cells in the well
- Rule for the call: 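Low infection ranks in the two replicates (chance level up to 0.065) followed by a retest with a 1.5-fold or larger significant decrease, p below 0.05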
- Meaning of the calls: active = confirmed: knock-down lowers infection; inactive = not picked or not confirmed

gene	reagent	infection score, replicate 1	infection score, replicate 2	cell count, replicate 1	cell count, replicate 2	outcome
CG31086 + CG31323	1	2.91	13.7	5919	6028	inactive
CG31086 + CG31323	2	1.1	1.78	6451	6612	inactive
up	1	18	14.9	6246	6601	inactive
up	2	14.6	5.19	2929	2390	inactive
Cyp49a1	1	4.06	6.28	6229	6890	inactive
Cyp49a1	2	4.32	4.31	6915	6726	inactive
CG8519	1	3.88	6.85	5876	5708	inactive
CG8519	2	9.67	2.43	5886	5627	inactive
CNT1	1	12.5	5.65	5832	6056	inactive
CNT1	2	0.22	8.1	456	1876	inactive
CG6900 (retired record)	1	6.27	4.97	5467	5670	inactive
CG13073	1	2.43	18.3	6207	5799	inactive
CG13073	2	6.66	16.3	5807	4499	inactive
ATPsynepsilonL	1	7.07	8.29	6324	6288	inactive
CG18537	1	10.6	22.1	5679	6087	inactive
CG18537	2	1.57	5.18	6481	6317	inactive
CG42307 + mus312	1	5.22	4.57	6228	6066	inactive
CG42307 + mus312	2	27.8	19.4	5743	3743	inactive
Pepck2	1	3.23	3.11	5790	5983	inactive
Pepck2	2	5.17	1.48	6292	6553	inactive
VhaM9.7-d	1	7.36	3.28	6281	6821	inactive
Obp47a	1	3.38	18.1	6959	5623	inactive
Obp47a	2	7.78	1.47	6397	5923	inactive
Fsn	1	5.7	2.98	6512	6345	inactive
Fsn	2	3.89	12	6497	6190	inactive
shn	1	1.33	1.33	5998	6150	inactive
shn	2	11.1	2.45	3912	4611	inactive
CG11927	1	11.2	28	4367	3683	inactive
CG13250	1	9.78	7.88	5795	5290	inactive
CG13250	2	14.2	21.3	2402	4402	inactive
Best3	1	1.26	1.17	5652	6088	inactive
Vps51	1	9.56	10.6	3629	3853	inactive
CG2617	1	3.69	3.59	6832	6462	inactive
CG2617	2	2.42	2.18	6313	6145	inactive
Prp40	1	3.95	2.65	4736	4790	inactive
idc	1	9.09	6.13	6324	6325	inactive
Cpr49Ae	1	7.48	12.3	6033	5875	inactive
Cpr49Ae	2			429	282	inactive
CG15870	1	3.37	14.4	6677	3710	inactive
CG15870	2	11	5.65	4616	6443	inactive
Flad1	1	1.41	6.52	6610	6716	inactive
CG6602	1	3.59	2	5966	5898	inactive
CG42827 + CG42828	1	1.64	10.8	6895	6329	inactive
Scp1	1	1.38	3.55	6651	6445	inactive
Scp1	2	3.74	7.69	6598	6739	inactive
Scp1	3	3.65	1.78	6468	6108	inactive
lky	1	7.72	0.64	5916	5904	inactive
lky	2	11.6	14.8	6167	7084	inactive
Rnp4F	1	2.75	1.3	6294	6482	inactive
Rnp4F	2	1.49	3.67	5960	6287	inactive
CG18631 (retired record)	1	35.1	28.2	5747	4666	inactive
CG18631 (retired record)	2	4.94	3.36	5954	6188	inactive
PIG-T	1	2	3.79	6589	6758	inactive
CG9890	1	4.38	14.4	2717	5462	inactive
CG9890	2	19.6	22.7	6777	6136	inactive
smg	1	13.6	26.1	4810	6197	inactive
smg	2	13.2	9.83	4946	6326	inactive
CG8860	1	10.6	2.51	6750	6823	inactive
CG8860	2	6.46	5.31	6691	6061	inactive
